What follows are compounds tested on Malassezia globosa (assay: Potency index, ratio of acetazolamide Ki to compound Ki for Malassezia globosa beta carbonic anhydrase).

| SMILES | Ratio Ki |
| --- | --- |
| Nc1ccccc1S(=O)(=O)N[N+](=O)[O-] | 10 |
| Nc1cc(S(=O)(=O)N[N+](=O)[O-])cc([N+](=O)[O-])c1O | 10 |
| Nc1ccc(S(=O)(=O)N[N+](=O)[O-])cc1 | 10 |

Reference: ChEMBL document CHEMBL3817799, “N-Nitrosulfonamides: A new chemotype for carbonic anhydrase inhibition” (Bioorg Med Chem, 2016)
